The list shows a part of the results, in another mix than the full data. The source made the active and inactive calls.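 The calls were made as follows: active = highest replicate inhibition at or above 60% at 9 µM, even if other replicates fall short; inactive = all replicates below 60% inhibition.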
Tested on: Kaposi's sarcoma herpesvirus LANA C-terminal domain (residues 932-1162) DNA binding
Experiment: inhibitors of KSHV C-LANA binding to DNA, primary screen, biochemical, fluorescence polarization, FAM-LBS DNA, MBP-C-LANA, single point (AID 504423);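 also: 0% = neutral control wells and 100% = 4 µM acridine orange control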
Settings: at 9 µM, stronger effect = higher value

SMILES | inhibition
O=P1(N(CCCl)CCCl)OCCCS1 (stereo unspecified) | inactive: -1.08%
O=C(Nc1cc([As](=O)(O)O)ccc1O)c1ccccc1 | inactive: 10.1%
O=[N+]([O-])c1ncn(CCn2ncnc2[N+](=O)[O-])n1 | inactive: 0.6%
CC(C)(C)C(=O)NC(Sc1ccncn1)C(Cl)(Cl)Cl (stereo unspecified) | inactive: -0.796%
O=C(O)CNc1ccc([As](=O)(O)O)cc1 | inactive: 0.444%
COC(=O)C1(C)COP(=O)(Nc2ccccc2)OC1 (stereo unspecified) | inactive: 0.55%
O=[N+]([O-])c1cccc(NC2=NCC(CBr)S2)c1 (stereo unspecified) | inactive: -0.0402%
O=[N+]([O-])c1cc([N+](=O)[O-])c(CCNc2ccccc2)c([N+](=O)[O-])c1 | inactive: 0.0466%
CCc1nc2c(n1)c1c(non1O)c1c2no[n+]1[O-] | inactive: -1.64%
Cc1ccc(NP(=O)(Oc2ccccc2)Oc2ccccc2)nc1 | inactive: -0.0135%
CC(=O)N1C2C3N(C(C)=O)C1C1N(C(C)=O)C(C(N1C(C)=O)N3C(C)=O)N2C(C)=O | inactive: -2.08%
O=[N+]([O-])c1cccc2n[nH]nc12 | inactive: -1.18%
CCN(/C(=N/P(=O)(N1CCOCC1)N1CCOCC1)N1CCOCC1)c1ccc(OC)cc1 | inactive: 0.395%
C[N+]1=C2C=CC=CC=C2SC12C([N+](=O)[O-])=CC([N+](=O)[O-])=C[C-]2[N+](=O)[O-] (stereo unspecified) | inactive: -0.0145%
Nc1ccc([As](=O)(O)c2ccc(N)cc2)cc1 | inactive: -1.53%
CC1CCN(C(=O)Oc2c(Cl)cc(Cl)c3cccnc23)CC1 | inactive: 0.35%
CN(C)C(=O)OCCc1n(C)cc[n+]1C | inactive: -0.403%
CC(C)=N/N=C(\N)N[N+](=O)[O-] | inactive: 0.248%
Cc1ccc(N/C(=N/P(=O)(N2CCOCC2)N2CCOCC2)N2CCOCC2)cc1 | inactive: -0.855%
CN(C(=O)Cc1ccc(Cl)c(Cl)c1)[C@H]1CCCC[C@H]1N1CCCC1 | inactive: -1.57%
NC(=O)c1cc([N+](=O)[O-])cc([N+](=O)[O-])c1N | inactive: 1.51%
CN1CCCC(OC(=O)C(c2ccccc2)c2ccccc2)C1 (stereo unspecified) | inactive: -0.351%
Clc1ccc(Cl)c(NC2=NCC(CBr)S2)c1 (stereo unspecified) | inactive: -2.74%
COc1ccccc1OP(=O)(Nc1ccc(C)cn1)Oc1ccccc1OC | inactive: 1.37%
O=C(NC(Sc1ccncn1)C(Cl)(Cl)Cl)c1ccccc1 (stereo unspecified) | inactive: 1.83%
Oc1ccccc1CNc1ccccn1 | inactive: 0.362%

SMILES | inhibition
Nc1cc(N)c2nonc2c1[N+](=O)[O-] | inactive: 1.05%
CC(C)CC(=O)NC(Sc1ccc(Cl)cc1)C(Cl)(Cl)Cl (stereo unspecified) | inactive: 0.0812%
O=P(Nc1nc2ccc(Cl)cc2s1)(c1ccccc1)c1ccccc1 | inactive: 0.345%
CCCC1OP(N)(=O)OCC1CC (stereo unspecified) | inactive: -1.03%
CC(=O)Nc1ccc([As](=O)(O)O)cc1 | inactive: -2.59%
O=C(O)c1ccccc1[As](=O)(O)O | inactive: -0.143%
CN(C(=O)Cc1ccc(Cl)c(Cl)c1)[C@H]1CCCC[C@@H]1N1CCCC1 | inactive: -0.759%
Cc1ccc(NP(=O)(Oc2ccccc2F)Oc2ccccc2F)nc1 | inactive: -0.41%
Cc1cc(SC(NC(=O)c2ccc(F)cc2)C(Cl)(Cl)Cl)ncn1 (stereo unspecified) | inactive: 0.575%
CCOP(=O)(Nc1ccccc1)OCC | inactive: -3.65%
Nc1cccc2ccc([As](=O)(O)O)cc12 | inactive: -0.498%
CCN(N=Nc1nonc1N)c1nonc1N | inactive: 0.823%
Cc1ccc(NP(=O)(Oc2cccc(C)c2)Oc2cccc(C)c2)nc1 | inactive: -0.577%
c1ccc(-c2nn[nH]n2)c(-c2nn[nH]n2)c1 | inactive: -1.35%
O=C(NC1CCS(=O)(=O)C1)NP(=S)(Oc1ccccc1)Oc1ccccc1 (stereo unspecified) | inactive: -0.185%
CCNC(=S)/N=C(\N)N[N+](=O)[O-] | inactive: 0.271%
O=P1(N(CCCl)CCCl)OCCC2CCCCN21 (stereo unspecified) | inactive: 2.37%
CCC(=O)N1C2C3N(C(=O)CC)C1C1N(C(=O)CC)C(C(N1C(=O)CC)N3C(=O)CC)N2C(=O)CC | inactive: 0.819%
O=C(OC1CN2CCC1CC2)c1ccccc1 (stereo unspecified) | inactive: 6.38%
Cc1ccc(OP(=O)(Nc2ccccn2)Oc2ccc(C)cc2)cc1 | inactive: 1.37%
CC(=O)NC(SC(=S)N(CC(C)C)CC(C)C)C(Cl)(Cl)Cl (stereo unspecified) | inactive: 1.91%
COC(=O)c1cc2c(s1)N=C(c1ccccc1)N(C)P2(=O)N1CCOCC1 (stereo unspecified) | inactive: -0.379%
O=c1c2cc([N+](=O)[O-])ccc2[nH]c2c([N+](=O)[O-])cc([N+](=O)[O-])cc12 | inactive: 0.265%
CN(C)C(=O)Oc1noc2ccccc12 | inactive: 0.831%
CC(NC(=O)COC(=O)C(O)(c1ccccc1)c1ccccc1)c1ccccc1 (stereo unspecified) | inactive: -2.2%
Cc1ccccc1OP(=O)(Nc1ccccn1)Oc1ccccc1C | inactive: -0.0775%

SMILES | inhibition
CCOc1ccc(C2=NCC(CBr)S2)cc1 (stereo unspecified) | inactive: -1.54%
O=P1(Nc2nc3ccc(Cl)cc3s2)COc2ccccc2O1 (stereo unspecified) | inactive: 0.141%
CC(C)(C)C(=O)NC(Sc1ccccc1)C(Cl)(Cl)Cl (stereo unspecified) | inactive: -0.147%
CCc1cc(O)c([N+](=O)[O-])c(C)c1[N+](=O)[O-] | inactive: 0.225%
C[C@H]1OP(=O)(Oc2ccccc2)C[C@@H]2O[C@@H]21 (stereo partly specified) | inactive: -0.811%
C[C@@H]1C=CCP(=O)(Oc2ccccc2)O1 (stereo partly specified) | inactive: 1.02%
Cc1ccccc1CN(C)C(=O)COC(=O)C(O)(c1ccccc1)c1ccccc1 | inactive: -1.12%
COC(=O)C1(C)COP(=O)(NCc2ccccc2)OC1 (stereo unspecified) | inactive: -1.11%
CC(=O)c1ccc(N2CC2c2ccncc2)cc1 (stereo unspecified) | inactive: 4.4%
N#C/C(=C\c1ccc(N(CCBr)CCBr)cc1)C(N)=O | inactive: 2.24%
CC(=O)Nc1ccc(Oc2c([N+](=O)[O-])cc([N+](=O)[O-])cc2[N+](=O)[O-])cc1 | inactive: -0.159%
CC(=O)Nc1ccc([As](=O)(O)O)c(O)c1 | inactive: -0.438%
O=P(Nc1nccs1)(c1ccccc1)c1ccccc1 | inactive: 0.213%
CC(C)C(=O)NC(Sc1ccccc1)C(Cl)(Cl)Cl (stereo unspecified) | inactive: 1.21%
c1nnnn1CCn1cnnn1 | inactive: 0.709%
CN(C)C1(CNC(=O)c2ccc(Cl)c(S(N)(=O)=O)c2)CCCCC1 | inactive: -1.06%
O=P(Nc1ccccn1)(c1ccc(Br)cc1)c1ccc(Br)cc1 | inactive: 1.71%
COc1ccc(N)c([N+](=O)[O-])c1[N+](=O)[O-] | inactive: 15%
C[C@H]1OP(=O)(Oc2ccccc2)[C@H](O)[C@H](O)[C@H]1N=[N+]=[N-] (stereo partly specified) | inactive: -0.608%
O=P(Nc1nc2ccccc2s1)(c1ccccc1)c1ccccc1 | inactive: -0.465%
O=[As](O)(c1ccccc1)c1ccc(O)cc1 | inactive: 0.685%
O=[N+]([O-])c1ncn(CCn2cnc([N+](=O)[O-])n2)n1 | inactive: 0.303%
CC(=O)NC(SC(=S)N(C)C)C(Cl)(Cl)Cl (stereo unspecified) | inactive: 1.23%
O=[N+]([O-])c1ccc(O)c(/C=N/Nc2ccc([N+](=O)[O-])cc2[N+](=O)[O-])c1 | inactive: 8.29%
O=C(OC1CN2CCC1CC2)c1cccc(Cl)c1 (stereo unspecified) | inactive: -0.853%
C(Cc1nn[nH]n1)Cc1nn[nH]n1 | inactive: -1.13%

SMILES | inhibition
Nc1ccc([As](=O)(O)c2ccc([N+](=O)[O-])cc2)cc1 | inactive: 0.344%
Cc1ccc(C(=O)OC2CN3CCC2CC3)cc1 (stereo unspecified) | inactive: -0.297%
CC1CCC(C(C)C)C(OP(=O)(Nc2ccccn2)c2ccccc2)C1 (stereo unspecified) | inactive: 1.77%
Cc1nn(-c2ccccc2)c2c1P(=O)(N1CCOCC1)N(C)C(c1ccccc1)=N2 (stereo unspecified) | inactive: -0.998%
CN(C)C1(CNC(=O)c2ccc(S(C)(=O)=O)cc2)CCCCC1 | inactive: 0.568%
CCCC1OP(=O)(Nc2ccccc2)OCC1CC (stereo unspecified) | inactive: -0.583%
O=C(/C=C/c1ccccc1)OC1CN2CCC1CC2 (stereo unspecified) | inactive: 0.367%
O=P1(Nc2ncccn2)COc2ccccc2OC1 | inactive: -0.635%
Nc1cccc([As](=O)(O)c2ccccc2)c1 | inactive: 3.3%
O=[As](O)(c1cccs1)c1cccs1 | inactive: -2.31%
Cc1ccc(OCC(=O)OC2CN3CCC2CC3)cc1 (stereo unspecified) | inactive: 0.596%
NS(=O)(=O)c1cccc(NC(=O)COC(=O)C(O)(c2ccccc2)c2ccccc2)c1 | inactive: 1.03%
O=P1(Nc2ccc(Br)cn2)COc2ccccc2OC1 | inactive: 0.383%
CCOP(=O)(NC(=NC(C)c1ccccc1)NC(C)c1ccccc1)OCC (stereo unspecified) | inactive: -2.04%
CCC1=CC2Cc3nc4ccc(Cl)cc4c(N)c3C(C1)C2 (stereo unspecified) | inactive: -2.21%
O=P1(Nc2ccccn2)COc2ccccc2OC1 | inactive: 0.571%
CCOP(=O)(Nc1ccc(C)cn1)OCC | inactive: -0.755%
CC(C)(C)C(=O)NC(Sc1ncccn1)C(Cl)(Cl)Cl (stereo unspecified) | inactive: -0.794%
Clc1n[nH]nc1-c1nn[nH][15n]1 | inactive: -1.45%
CN(C(=O)Cc1ccc(Cl)c(Cl)c1)[C@@H]1CCCC[C@H]1N1CCCC1 | inactive: 1.13%
CC(C)/C=N\N=C(\N)N[N+](=O)[O-] | inactive: 0.31%
CC1(CBr)Cn2c(nc3ccccc3c2=O)S1 (stereo unspecified) | inactive: -0.296%
O=C(OC1CN2CCC1CC2)c1ccc(Cl)cc1 (stereo unspecified) | inactive: -1.3%

Source: PubChem BioAssay AID504423 (Broad Institute, 2011)
